Anti-infective test results gathered from many reports (values: NIAID ChemDB through PubChem).

All rows: whole-cell or culture tests; organism: Mycobacterium tuberculosis

ECn: concentration that inhibits the pathogen or its effect by n%. MIC bound: limit read from a one-dose screen. Blank or dashed fields: not listed here. Lines come from different laboratories, so protocols vary. Inhibition is in % at the dose shown (toxicity tests: loss of growth or viability).

compound | strain | endpoint | changes | setting | tested at | cell line | method | value
COc1ccccc1Nc1nc(NNc2nc(-c3ccccc3)c(C#N)c(=O)n2C)nc(Nc2ccccc2OC)n1 | H37Rv | MIC | - | - | - | - | - | >12.5 µg/mL
CC1COc2c(N3CCN(C)CC3)c(F)cc3c(=O)c(C(=O)O)cn1c23 | SMI 15 | MIC | - | - | - | - | agar | 4 µg/mL
O=c1oc2ccc(Br)cc2c(=S)n1-c1ccc(Br)cc1 | My 331/88 | MIC | - | 21 d | - | - | - | 2 µM
NCC[C@H](O)C(=O)N[C@@H]1C[C@H](N)[C@@H](O[C@H]2O[C@H](CN)[C@@H](O)[C@H](O)[C@H]2O)[C@H](O)[C@H]1O[C@H]1O[C@H](CO)[C@@H](O)[C@H](N)[C@H]1O | ATCC 35827 (kanamycin-resistant) | MIC | - | - | - | - | - | >128 µg/mL
COc1ccc2c(=O)n(-c3cccc(Cl)c3)c(=O)oc2c1 | CNCTC MY331/88 | MIC | - | - | - | - | - | 8 µM
COc1ccccc1NC(=O)OCC[NH+]1CCCC1 | My 331/88 | MIC | - | - | - | - | - | 1000 µM
NC(=O)c1cnccn1 | TB213 | inhibition | - | 7 d | 800 µg/mL | - | - | 97.9%
NC(=O)C1=C[C@H]2[C@H]3C=C[C@@]2(O)C(=O)O[C@@H]3O1 | H37Rv | MIC bound | - | - | - | - | BACTEC | ≤12.5 µg/mL
NC(=O)c1cnccn1 | Isolate K10428 | MIC | - | - | - | - | - | >500 µg/mL
C/C(=N/NC(=S)N1CCC(c2ccccc2)CC1)c1nccnc1C | H37Rv | MIC bound | - | - | - | - | BACTEC | ≤12.5 µg/mL
C[C@@H]1CN(c2c(F)c(N)c3c(=O)c(C(=O)O)cn(C4CC4)c3c2F)C[C@H](C)N1 | 890902 | MIC | - | - | - | - | - | 0.2 µg/mL
CO[C@H]1/C=C/O[C@@]2(C)Oc3c(C)c(O)c4c(O)c(c(/C=N/N5CCN(C6CCCC6)CC5)c(O)c4c3C2=O)NC(=O)/C(C)=C\C=C\[C@H](C)[C@H](O)[C@@H](C)[C@@H](O)[C@@H](C)[C@H](OC(C)=O)[C@@H]1C | Isolate 900240 drug-susceptible | MIC | - | - | - | - | - | 0.125 µg/mL
CCCCCCCCCCCC(=O)NN=C(C)C | - | MIC | - | - | - | - | - | >200 µg/mL
CCCCCOc1cccc(NC(=O)OCCN2CCOCC2)c1 | My 331/88 | MIC | - | - | - | - | - | 62.5 µM
C[C@]1(COc2ccc(N3CCN(C/C=C/c4ccc(OC(F)(F)F)cc4)CC3)cc2)Cn2cc([N+](=O)[O-])nc2O1 | H37Rv | MIC | - | - | - | - | - | 0.012 µg/mL
CCCCCCCCOc1ccc(NC(=O)OCC[NH+]2CCCC2)cc1 | My 331/88 | MIC | - | - | - | - | - | 16 µM
CO[C@H]1/C=C/O[C@@]2(C)Oc3c(C)c(O)c4c(O)c(c5c(c4c3C2=O)NC2(CCN(CC(C)C)CC2)N=5)=NC(=O)/C(C)=C\C=C\[C@H](C)[C@H](O)[C@@H](C)[C@@H](O)[C@@H](C)[C@H](OC(C)=O)[C@@H]1C | 27 (rifampin-resistant) | MBC | - | - | - | - | - | 0.4 µg/mL
CC(C)CCN1C(=O)c2cc(Cl)nnc2Oc2ccc(Cl)cc21 | H37Rv | EC50 | - | - | - | - | BACTEC | >12.5 µg/mL
O=c1oc2ccc(Br)cc2c(=S)n1-c1ccc(F)cc1 | My 331/88 | MIC | - | 14 d | - | - | - | 0.5 µM
CCCCCCN1C(=O)c2cc(Cl)nnc2Oc2ccc3ccccc3c21 | H37Rv | EC50 | - | - | - | - | BACTEC | >12.5 µg/mL
NC(=S)NNC(=O)c1ccc([N+](=O)[O-])cc1 | H37Rv | MIC | - | - | - | - | BACTEC | 12.5 µg/mL
CC(=O)NNS(=O)(=O)c1ccc([N+](=O)[O-])cc1 | - | MIC | - | - | - | - | - | 200 µg/mL
Cc1ccc(Cn2nnc(-c3cc([N+](=O)[O-])cc([N+](=O)[O-])c3)n2)cc1 | My 331/88 | MIC | - | 14 d | - | - | - | 0.125 µM
COc1cc(OC)c2nc3occc3c(OC)c2c1 | H37Rv | MIC | - | - | - | - | BACTEC | ≥12.8 µg/mL
C[C@@H]1CN(c2c(F)c(N)c3c(=O)c(C(=O)O)cn(C4CC4)c3c2F)C[C@H](C)N1 | CSU26 | MIC | - | - | - | - | - | ≤0.125 µg/mL
CN(C)C(=S)SCN1C(=O)c2ccccc2C1=O | ETA-R | MIC | - | - | - | - | - | 3.2 µg/mL
Cn1c(NNc2nc(Nc3cccc(Cl)c3)nc(Nc3cccc(Cl)c3)n2)nc(-c2ccccc2)c(C#N)c1=O | H37Rv | EC50 | - | - | - | VERO | - | <12.5 µg/mL
O=c1oc2ccc(Br)cc2c(=S)n1-c1cccc(Cl)c1 | My 331/88 | MIC | - | 21 d | - | - | - | 1 µM
NNC(=O)c1ccncc1 | CSU18 | MIC | - | - | - | - | - | 4 µg/mL
CCCCCCOc1ccc(NC(=O)OCC[NH+]2CCCC2)cc1 | My 331/88 | MIC | - | - | - | - | - | 32 µM
Cc1ccc2c(c1)N(CC1CCCCC1)C(=O)c1cc(Cl)nnc1O2 | H37Rv | inhibition | - | - | 12.5 µg/mL | - | BACTEC | 66%
CN[C@@H]1[C@@H](O)[C@@H](O[C@@H]2[C@@H](O)[C@H](O[C@H]3O[C@H](CN)CC[C@H]3N)[C@@H](N)C[C@H]2N)OC[C@]1(C)O | 234/2005 | MIC | - | - | - | - | - | 0.26 µM
COc1ccc2c(=O)n(-c3ccccc3)c(=O)oc2c1 | CNCTC MY331/88 | MIC | - | - | - | - | - | 32 µM
CCCCCOc1cccc(NC(=O)OCCN(C)C)c1 | My 331/88 | MIC | - | - | - | - | - | 32 µM
COc1cccc2c(=O)n3c(nc12)C(=O)c1cc(I)ccc1-3 | H37Rv | MIC | - | - | - | - | - | 0.03 µg/mL
Cc1ccc2c(c1)N(CCCC1CCCCC1)C(=O)c1cc(Cl)nnc1O2 | H37Rv | EC50 | - | - | - | - | BACTEC | >12.5 µg/mL
COc1c2c(cc3c1C1Oc4c(ccc(O)c4CC=C(C)C)C1CO3)OC(C)(C)C=C2 | KM-R | MIC | - | - | - | - | - | 12.5 µg/mL
CC1=NNC(=O)C1=C(C)C | - | MIC | - | - | - | - | - | >200 µg/mL
COc1cccc(NC2CCN(c3ccc(OC[C@@]4(C)Cn5cc([N+](=O)[O-])nc5O4)cc3)CC2)c1 | H37Rv | MIC | - | - | - | - | - | 0.024 µg/mL
CCCCCCCCOc1ccc(NC(=O)OCCN2CCCCCC2)cc1 | My 331/88 | MIC | - | - | - | - | - | 4 µM
C[C@]1(COc2ccc(N3CCC(COc4ccc(OC(F)(F)F)cc4)CC3)cc2)Cn2cc([N+](=O)[O-])nc2O1 | H37Rv | MIC | - | - | - | - | - | 0.0015 µg/mL
Cc1cc2c3ccccc3[nH]c(=O)n2n1 | H37Rv | inhibition | - | - | 12.5 µg/mL | - | BACTEC | -5%
O=C1c2cc(Cl)ccc2-n2c1nc1cc(F)ccc1c2=O | H37Rv | MIC | - | - | - | - | - | 0.13 µg/mL
CCCCCCOc1ccc(NC(=O)OCCN2CCOCC2)cc1 | My 331/88 | MIC | - | - | - | - | - | 32 µM
NNC(=O)c1cc2c(cn1)[nH]c1ccccc12 | H37Rv | MIC bound | - | - | - | - | BACTEC | >12.5 µg/mL
CO[C@H]1/C=C/O[C@@]2(C)Oc3c(C)c(O)c4c(O)c(c(/C=N/N5CCN(C)CC5)c(O)c4c3C2=O)NC(=O)/C(C)=C\C=C\[C@H](C)[C@H](O)[C@@H](C)[C@@H](O)[C@@H](C)[C@H](OC(C)=O)[C@@H]1C | TN635 | MIC | - | - | - | - | - | >32 µg/mL
CC(=O)OCC1OC(OC2C3COC(O3)C3OC(C)(C)OC23)C(OC(C)=O)C(OC(C)=O)C1OC(C)=O | H37Rv | MIC bound | - | - | - | - | BACTEC | >12.5 µg/mL
CCN(CCN(C)C)c1ccc2nc3n(c(=O)c2c1)-c1ccc(Cl)cc1C3=O | H37Rv | MIC | - | - | - | - | - | 0.13 µg/mL
O=C1CN(C2CCCCC2)CC(=O)N2CCCCN12 | H37Rv | MIC bound | - | - | - | - | BACTEC | >12.5 µg/mL
CCOC(=O)c1ccc(-n2c(=O)oc3cc(OC)ccc3c2=O)cc1 | CNCTC MY331/88 | MIC | - | - | - | - | - | 2 µM
Fc1ccc(-n2c(=S)oc3ccc(F)cc3c2=S)cc1 | My 331/88 | MIC | - | 21 d | - | - | - | 2 µM
Cn1c(NNc2nc(NCc3ccco3)nc(NCc3ccco3)n2)nc(-c2ccc(Cl)cc2)c(C#N)c1=O | H37Rv | inhibition | - | - | 12.5 µg/mL | - | - | 17%
Fc1ccc(-n2c(=S)oc3ccc(Cl)cc3c2=S)cc1 | My 331/88 | MIC | - | 14 d | - | - | - | 1 µM
CO[C@H]1/C=C/O[C@@]2(C)Oc3c(C)c(O)c4c(=O)c(c5oc6cc(N7CCN(C(C)C)CC7)cc(=O)c6nc5c4c3=C2O)NC(=O)/C(C)=C\C=C\[C@H](C)[C@H](O)[C@@H](C)[C@@H](O)[C@@H](C)[C@H](OC(C)=O)[C@@H]1C | 3125 (rifampin-sensitive) | MBC | - | - | - | - | - | 0.05 µg/mL
Cc1c2cc[n+](C)cc2c(CO[C@H]2O[C@@H](C[O-])[C@@H](O)[C@H]2O)c2c3ccccc3n(C)c12 | H37Rv | inhibition | - | - | 6.25 µg/mL | - | resazurin | 11%
O=C1c2cc(I)ccc2-n2c1nc1ncccc1c2=O | TN1037RFLP:H (DRUG sensitive) | MIC | - | - | - | - | - | 0.06 µg/mL
O=C1NN=CC1c1ccccc1 | - | MIC | - | - | - | - | - | >200 µg/mL
Cc1cn([C@H]2C=C[C@@H](CO)O2)c(=O)[nH]c1=O | H37Rv | MIC bound | - | - | - | - | BACTEC | >12.5 µg/mL
O=C1c2cc(I)ccc2-n2c1nc1c(I)cc(I)cc1c2=O | H37Rv | MIC | - | - | - | - | - | 1 µg/mL
Cn1c(NNc2nc(NCc3ccccc3)nc(NCc3ccccc3)n2)nc(-c2ccccc2)c(C#N)c1=O | H37Rv | MIC | - | - | - | - | - | >12.5 µg/mL
CCCOc1cccc(NC(=O)OCCN2CCOCC2)c1 | My 331/88 | MIC | - | - | - | - | - | 1000 µM
CN(C)CCCNC(=O)C1N=NC(=S)NC1=O | H37Rv | inhibition | - | - | 12.5 µg/mL | - | BACTEC | 0%
CC(=O)NC[C@H]1CN(c2ccc(N3CCOCC3)c(F)c2)C(=O)O1 | Clinical isolate BRF 23 | MIC | INH resistant | - | - | - | resazurin | 0.25 µg/mL
COc1ccc2oc(=S)n(-c3cccc(Cl)c3)c(=S)c2c1 | My 331/88 | MIC | - | 21 d | - | - | - | 32 µM
O=C1c2c(O)ccc(O)c2C(=O)c2c(NCCO)ccc(NCCO)c21 | H37Rv | MIC bound | - | - | - | - | BACTEC | >12.5 µg/mL
CO[C@H]1/C=C/O[C@@]2(C)Oc3c(C)c(O)c4c(O)c(c(/C=N/N5CCN(C6CCCC6)CC5)c(O)c4c3C2=O)NC(=O)/C(C)=C\C=C\[C@H](C)[C@H](O)[C@@H](C)[C@@H](O)[C@@H](C)[C@H](OC(C)=O)[C@@H]1C | L404 | MIC | - | - | - | - | - | 0.05 µg/mL
CC(C)=NNC(=O)c1ccc(NS(=O)(=O)c2ccccc2)cc1 | - | MIC | - | - | - | - | - | >200 µg/mL
Cc1ccc2oc(=O)n(-c3cccc(Cl)c3)c(=S)c2c1 | My 331/88 | MIC | - | 21 d | - | - | - | 0.5 µM
O=C1SCCN1/N=C/c1ccc([N+](=O)[O-])o1 | H37Rv | inhibition | - | - | 6.25 µg/mL | - | resazurin | 33%
CN(C)c1ccc(-n2c(=O)oc3ccc(Cl)cc3c2=O)cc1 | CNCTC MY331/88 | MIC | - | - | - | - | - | 31 µM
CC(=O)OCCCC/C=C/c1ccc2nc3n(c(=O)c2c1)-c1ccc(Cl)cc1C3=O | H37Rv | MIC | - | - | - | - | - | 2 µg/mL
CCNc1nc(NCC)nc(NNc2nc(-c3ccccc3)c(C#N)c(=O)n2C)n1 | H37Rv | EC50 | - | - | - | - | - | >12.5 µg/mL
NNC(=O)[C@H](Cc1cnc[nH]1)NC(=O)OCc1ccccc1 | H37Rv | inhibition | - | - | 12.5 µg/mL | - | BACTEC | -5%
CC(C)N=c1cc2n(-c3ccc(Cl)cc3)c3ccccc3nc-2cc1Nc1ccc(Cl)cc1 | 7357/1998 | MIC | - | - | - | - | - | 0.13 µM
CNc1ccc(Nc2cc(S(=O)(=O)O)c(N)c3c2C(=O)c2ccccc2C3=O)cc1 | H37Rv | MIC bound | - | - | - | - | BACTEC | >12.5 µg/mL
C[C@]1(COc2ccc(N3CCC(COCc4ccccc4Cl)CC3)cc2)Cn2cc([N+](=O)[O-])nc2O1 | H37Rv | MIC | - | - | - | - | - | 0.05 µg/mL
O=S(=O)(c1cnccc1N1CCN(CCO)CC1)N1CCCCC1 | H37Rv | MIC bound | - | - | - | - | resazurin | >6.25 µg/mL
CC1CN(c2c(F)cc3c(=O)c(C(=O)O)cn(C4CC4)c3c2F)CCN1 | CSU22 | MIC | - | - | - | - | - | 0.5 µg/mL
CC(=O)c1cc2c(cc1C(C)C)CC[C@H]1[C@](C)(C#N)CCC[C@]21C | H37Rv | inhibition | - | - | 12.5 µg/mL | - | BACTEC | 79%
CN(CCOC(=O)CCC(=O)O)c1ccc2c(=O)n3c(nc2c1)C(=O)c1cc(Cl)ccc1-3 | H37Rv | MIC | - | - | - | - | - | 1 µg/mL
COc1cccc(Nc2nc(NNc3nc(-c4ccccc4)c(C#N)c(=O)n3C)nc(Nc3cccc(OC)c3)n2)c1 | H37Rv | MIC | - | - | - | VERO | - | >12.5 µg/mL
CO[C@H]1/C=C/O[C@@]2(C)Oc3c(C)c(O)c4c(O)c(c5c(c4c3C2=O)NC2(CCN(CC(C)C)CC2)N=5)=NC(=O)/C(C)=C\C=C\[C@H](C)[C@H](O)[C@@H](C)[C@@H](O)[C@@H](C)[C@H](OC(C)=O)[C@@H]1C | CSU11 | MIC | - | - | - | - | - | ≤0.125 µg/mL
COc1ccc(C(=O)/C=C/c2ccc3c(c2)OCO3)c(OCc2ccccc2)c1 | H37Rv | inhibition | - | - | 12.5 µg/mL | - | BACTEC | 9%
Cc1ccc(Nc2nc(NNc3nc(-c4ccccc4)c(C#N)c(=O)n3C)nc(Nc3ccc(C)cc3C)n2)c(C)c1 | H37Rv | EC50 | - | - | - | VERO | - | <12.5 µg/mL